Pooled drug test results. Numbers come from NIAID ChemDB, via PubChem.

All rows: whole-cell or culture tests; organism: HIV-1; cell line: MT-4; read-out: EC95

An empty or dashed field is not shown. Two numbers with a dash give a range or band. ECn is the concentration giving n% inhibition of infection, replication or growth. Conditions beyond the fields shown may differ between rows.

| smiles | strain | changes | read by | value |
|---|---|---|---|---|
| O=C(N[C@H]1c2ccccc2OC[C@H]1O)[C@H](Cc1cccnc1)C[C@H](O)CN1CCN(Cc2ccn(-c3ccc(F)c(F)c3F)c2)C[C@H]1C(=O)NCC(F)(F)F | Q-60C Clinical isolate | PR-L10I N37S R41K M46I I54V I62V L63P A71V V77I V82A L90M I93L | p24 | ≤0.008 µM |
| CCCc1nnc(C[C@H](C[C@H](O)CN2CCN(C(C)(C)c3ncc(-c4cncc(OC)c4)o3)C[C@H]2C(=O)NCC(F)(F)F)C(=O)N[C@H]2c3ccccc3OC[C@H]2O)o1 | Q-60 Clinical isolate | PR-L10I N37S R41K M46I I54V I62V L63P A71V V77I V82A L90M I93L | p24 | 0.5 µM |
| O=C(N[C@H]1c2ccccc2OC[C@H]1O)[C@H](Cc1cccnc1)C[C@H](O)CN1CCN(Cc2ccn(-c3ccccc3)c2)C[C@H]1C(=O)NCC(F)(F)F | Q-60C Clinical isolate | PR-L10I N37S R41K M46I I54V I62V L63P A71V V77I V82A L90M I93L | p24 | ≤0.008 µM |
| Cc1cn([C@H]2C[C@H](N=[N+]=[N-])[C@@H](CO)O2)c(=O)[nH]c1=O | A17 | - | p24 | 0.025 µM |
| CC(C)(C)NC(=O)[C@@H]1C[C@@H]2CCCC[C@@H]2CN1C[C@@H](O)[C@H](Cc1ccccc1)NC(=O)[C@H](CC(N)=O)NC(=O)c1ccc2ccccc2n1 | NL4-3 | PR-M46I L63P | p24 | 0.025 µM |
| O=C(CSc1nnnn1-c1ccccc1-c1ccccc1)Nc1ccccc1[N+](=O)[O-] | - | - | p24 | <10 µM |
| Cc1nnc(C[C@H](C[C@H](O)CN2CCN(C(C)(C)c3ncc(-c4ccc(Cl)cc4)o3)C[C@H]2C(=O)NCC(F)(F)F)C(=O)N[C@H]2c3ccccc3OC[C@H]2O)o1 | K-60 Clinical isolate | PR-L10I M46I I54V Q58E L63P I64V V77I V82F I84V L90M I93L | p24 | 0.031 µM |
| O=C1N(Cc2ccc(CO)cc2)[C@H](Cc2ccccc2)[C@H](O)[C@@H](O)[C@@H](Cc2ccccc2)N1Cc1ccc(CO)cc1 | NL4-3 | PR-M46I L63P V82T I84V | p24 | 3 µM |
| COc1cncc(-c2cnc(C(C)(C)N3CCN(C[C@@H](O)C[C@@H](Cc4nnc(-c5ccccc5)o4)C(=O)N[C@H]4c5ccccc5OC[C@H]4O)[C@H](C(=O)NCC(F)(F)F)C3)o2)c1 | K-60 Clinical isolate | PR-L10I M46I I54V Q58E L63P I64V V77I V82F I84V L90M I93L | p24 | 0.25 µM |
| Cc1ccccc1CNC(=O)[C@H]1N(C[C@@H](O)C[C@@H](Cc2ccccc2)C(=O)N[C@H]2c3ccccc3OC[C@H]2O)CSC1(C)C | - | PR-V18C | p24 | 1 µM |
| CCc1cc(NCc2nc3c(C)ccc(C)c3o2)c(=O)[nH]c1C | WMJ-2 | - | p24 | 0.1 µM |
| CCc1cc(NCc2nc3c(C)ccc(C)c3o2)c(=O)[nH]c1C | rHXB2 | - | p24 | 0.05 µM |
| O=C(N[C@H]1c2ccccc2OC[C@H]1O)[C@H](Cc1cccnc1)C[C@H](O)CN1CCN(Cc2ccn(-c3cc(Cl)c(Cl)c(Cl)c3)c2)C[C@H]1C(=O)NCC(F)(F)F | K-60C Clinical isolate | PR-L10I M46I I54V Q58E L63P I64V V77I V82F I84V L90M I93L | p24 | 0.031 µM |
| Cc1cc(C)c(-n2nnnc2SCC(=O)Nc2ccc(C)c([N+](=O)[O-])c2)c(C)c1 | - | - | p24 | <10 µM |
| O=C(N[C@H]1c2ccccc2OC[C@H]1O)[C@H](Cc1cccnc1)C[C@H](O)CN1CCN(Cc2ccn(-c3ccc(Cl)cc3)c2)C[C@H]1C(=O)NCC(F)(F)F | NL4-3 WT | - | p24 | ≤0.008 µM |
| CC(C)(c1ncc(-c2ccc(F)cc2)o1)N1CCN(C[C@@H](O)C[C@@H](Cc2nnc(-c3ccccc3)o2)C(=O)N[C@H]2c3ccccc3OC[C@H]2O)[C@H](C(=O)NCC(F)(F)F)C1 | V-18 Clinical isolate | PR-L10I M36I N37D M46I R57K L63P A71V G73S I84V L90M I93L | p24 | 0.063 µM |
| Cc1cccc(-n2ccc(CN3CCN(C[C@@H](O)C[C@@H](Cc4cccnc4)C(=O)N[C@H]4c5ccccc5OC[C@H]4O)[C@H](C(=O)NCC(F)(F)F)C3)c2)c1 | K-60C Clinical isolate | PR-L10I M46I I54V Q58E L63P I64V V77I V82F I84V L90M I93L | p24 | 0.031 µM |
| CCc1cc(NCc2nc3ccccc3o2)c(=O)[nH]c1C | IIIB | - | p24 | 0.2 µM |
| O=C(N[C@H]1c2ccccc2OC[C@H]1O)[C@H](Cc1cccnc1)C[C@H](O)CN1CCN(Cc2ccn(-c3cccc(Cl)c3)c2)C[C@H]1C(=O)NCC(F)(F)F | Q-60C Clinical isolate | PR-L10I N37S R41K M46I I54V I62V L63P A71V V77I V82A L90M I93L | p24 | ≤0.008 µM |
| Cc1cc(C)c(-n2nnnc2SCC(=O)Nc2ccccc2I)c(C)c1 | - | - | p24 | <10 µM |
| Cc1nnc(C[C@H](C[C@H](O)CN2CCN(Cc3ccc(-c4ccc(Cl)cc4)o3)C[C@H]2C(=O)NCC(F)(F)F)C(=O)N[C@H]2c3ccccc3OC[C@H]2O)o1 | V-18 Clinical isolate | PR-L10I M36I N37D M46I R57K L63P A71V G73S I84V L90M I93L | p24 | 0.063 µM |
| CC(C)=CCN1c2cc(Cl)cc3[nH]c(=S)n(c23)C[C@@H]1C | - | RT-L74V L100I | - | 0.4 µM |
| CC(C)(c1ncc(-c2ccc(Cl)cc2)o1)N1CCN(C[C@@H](O)C[C@@H](Cc2nnco2)C(=O)N[C@H]2c3ccccc3OC[C@H]2O)[C@H](C(=O)NCC(F)(F)F)C1 | V-18 Clinical isolate | PR-L10I M36I N37D M46I R57K L63P A71V G73S I84V L90M I93L | p24 | 0.063 µM |
| O=C(N[C@H]1c2ccccc2OCC1O)[C@H](Cc1cccnc1)C[C@H](O)CN1CCN(Cc2ccc(-c3ccccc3)o2)C[C@H]1C(=O)NCC(F)(F)F | NL4-3 WT | - | p24 | ≤0.008 µM |
| CC(C)(c1ncc(-c2ccc(F)cc2)o1)N1CCN(C[C@@H](O)C[C@@H](Cc2nnco2)C(=O)N[C@H]2c3ccccc3OC[C@H]2O)[C@H](C(=O)NCC(F)(F)F)C1 | K-60 Clinical isolate | PR-L10I M46I I54V Q58E L63P I64V V77I V82F I84V L90M I93L | p24 | 0.125 µM |
| Cc1cc(C)c(-n2nnnc2SCC(=O)Nc2ccc(Cl)cn2)c(C)c1 | - | - | p24 | <10 µM |
| O=C(N[C@H]1c2ccccc2OC[C@H]1O)[C@H](Cc1cccnc1)C[C@H](O)CN1CCN(Cc2ccn(-c3cccc(C(F)(F)F)c3)c2)C[C@H]1C(=O)NCC(F)(F)F | K-60C Clinical isolate | PR-L10I M46I I54V Q58E L63P I64V V77I V82F I84V L90M I93L | p24 | 0.031 µM |
| CCc1cc(NCc2nc3c(Cl)ccc(Cl)c3o2)c(=O)[nH]c1C | IIIB | - | p24 | 0.025–0.05 µM |
| Cc1cc(C)c(-n2nnnc2SCC(=O)Nc2ccc(C#N)cc2)c(C)c1 | - | - | p24 | <10 µM |

2 of the rows above, restated:

CCCc1nnc(C[C@H](C[C@H](O)CN2CCN(C(C)(C)c3ncc(-c4cncc(OC)c4)o3)C[C@H]2C(=O)NCC(F)(F)F)C(=O)N[C@H]2c3ccccc3OC[C@H]2O)o1 ; strain: Q-60 Clinical isolate ; changes: PR-L10I N37S R41K M46I I54V I62V L63P A71V V77I V82A L90M I93L ; read by: p24 ; value: 0.5 µM
Cc1cn([C@H]2C[C@H](N=[N+]=[N-])[C@@H](CO)O2)c(=O)[nH]c1=O ; strain: A17 ; read by: p24 ; value: 0.025 µM